Laboratory results reported in patent publication US8470771B2, “Method and medicament for inhibiting the infection of influenza virus” (priority 2007, dated 2013).

Columns and labels:
[1] = test system: QH-WSN virus (avian influenza virus H5N1)
[2] = test system: WSN virus (human influenza virus H1N1)
[3] = test system: JX virus (human influenza virus H3N2)

CC[C@H](C)[C@H](NC(=O)[C@H](C)NC(=O)[C@H](CCCCN)NC(=O)[C@H](CCC(N)=O)NC(=O)[C@@H](NC(=O)[C@H](CO)NC(=O)[C@H](CCC(=O)O)NC(=O)[C@@H](N)CCCCN)[C@@H](C)O)C(=O)N[C@@H](CC(=O)O)C(=O)NCC(=O)N[C@H](C(=O)N[C@H](C(=O)N[C@@H](CC(N)=O)C(=O)N[C@@H](CCCCN)C(=O)N[C@H](C(=O)N[C@@H](CC(N)=O)C(=O)N[C@@H](CO)C(=O)N[C@H](C(=O)N[C@H](C(=O)N[C@@H](CC(=O)O)C(=O)N[C@@H](CCCCN)C(=O)O)[C@@H](C)CC)[C@@H](C)CC)C(C)C)[C@@H](C)O)C(C)C [HR1]
IC50 [1]: 15.8 ± 2.3 µM | IC50 [2]: 11.1 ± 3.8 µM | IC50 [3]: 16.4 ± 2.5 µM
